According to patent US9492416B2, “Use of caftaric acid and lactic bacterium in food supplement for regulating skin pigmentation” (Nestec S.A., priority 2010, dated 2016):

System: chlorogenate esterase
Experiment: Hydrolyzis of caftaric acid with chlorogenate esterase (HPLC)
Type: biochemical, Aspergillus japonicus
Settings: 37° C.

| Compound | Concentration in % relative to untreated reference at t = 0 (pH 7.0, time 0 min) | Concentration in % relative to untreated reference at t = 0 (pH 7.0, time 15 min) | Concentration in % relative to untreated reference at t = 0 (pH 7.0, time 30 min) | Concentration in % relative to untreated reference at t = 0 (pH 7.0, time 60 min) | Concentration in % relative to untreated reference at t = 0 (pH 7.0, time 120 min) | Concentration in % relative to untreated reference at t = 0 (pH 7.0, time 240 min) |
| --- | --- | --- | --- | --- | --- | --- |
| O=C(/C=C/c1ccc(O)c(O)c1)O[C@@H](C(=O)O)[C@@H](O)C(=O)O [Caftaric acid] | 99% | 82% | 64% | 43% | 19% | 2% |
| O=C(O)/C=C/c1ccc(O)c(O)c1 [Caffeic Acid] | 0% | 18% | 36% | 57% | 81% | 98% |
